Measured values from several laboratories, pooled; numbers as filed in NIAID ChemDB.

Common to all: enzyme or target tests; species: Hepatitis C virus; target: Nonstructural protein 5B

Rows are shuffled and stem from different studies. Blank or dashed fields: not listed here. a–b is a range or a potency band. ICn: concentration for n% inhibition. Percent inhibition refers to the dose given; in toxicity tests it is the harm to the cells.

structure	read by	strain	read-out	dose	value
CC(=O)c1ccccc1-c1ccc(C=C2SC(=S)N(c3ccc(C(=O)O)cc3)C2=O)o1	-	-	IC50	-	≤1 µM
COc1c(-c2ccc3cc(NS(C)(=O)=O)ccc3c2)cc(-n2ccc(=O)[nH]c2=O)cc1C(C)(C)C	nucleotide incorporation	GT 4a#2	IC50	-	3.7 µM
O=C(O)c1ccc(N2C(=O)C(=Cc3ccc(-c4cc(C(F)(F)F)ccc4Cl)o3)SC2=S)cc1Cl	-	-	IC50	-	≤1 µM
CNC(=O)c1c(-c2ccc(F)cc2)oc2cc(C)c(OC(C)C)cc12	-	-	IC50	-	≤0.5 µM
COc1nc(NCCc2c[nH]c3ccccc23)nc(Nc2ccc3[nH]ncc3c2)n1	-	-	inhibition	1 µg/mL	22%
O=C1C=C(O)CC(CC2CCc3ccccc32)(C2CCCC2)O1	-	-	IC50	-	>50 µM
CNC(=O)c1c(-c2ccc(F)cc2)oc2cc(N(C)S(C)(=O)=O)c(OCc3nccn3C)cc12	-	-	IC50	-	≤0.5 µM
CC(=O)Nc1cc(C(C)(C)C)c(SC2=C(O)CC(CCc3ccc(O)cc3)(C3CCCCC3)OC2=O)cc1C	-	-	IC50	-	>50 µM
CNC(=O)c1c(-c2ccc(F)cc2)oc2cc(-c3cc(COC(C)C)on3)c(OC)cc12	-	-	IC50	-	≤0.5 µM
COc1ccc(CCC2(C3CCCC3)CC(=O)CC(=O)O2)cc1	-	-	IC50	-	1–10 µM
COc1nc(Nc2ccc3cn[nH]c3c2)nc(N2CCC(O)CC2)n1	-	-	inhibition	10 µg/mL	57%
O=C(O)CCN1C(=O)C(=Cc2ccc(-c3ccc(Cl)cc3)o2)SC1=S	-	-	IC50	-	≤1 µM
CNC(=O)c1c(-c2ccc(F)cc2)oc2cc(N(C)S(C)(=O)=O)c(OCC(=O)Nc3nccs3)cc12	-	-	IC50	-	≤0.5 µM
COc1cc(OC)c(CCC2(C3CCCC3)CC(O)=C(Sc3ncn[nH]3)C(=O)O2)cc1Cl	-	-	IC50	-	<1 µM
Cc1ccnc(-c2ccc(C=C3SC(=S)N(c4ccc(C(=O)O)cc4)C3=O)o2)c1	-	-	IC50	-	≤1 µM
CNC(=O)c1c(-c2ccc(F)cc2)oc2cc(N3CCOCC3)c(OCCCl)cc12	-	-	IC50	-	≤0.5 µM
CCOC(=O)C1=CN(N2CCN(c3nc(Nc4ccc5cn[nH]c5c4)nc(OC)n3)CC2)C(SC)N=C1	-	-	inhibition	1 µg/mL	11%
COc1ccc(CCC2(C3CCCC3)CC(O)=C(Sc3n[nH]c(-c4ccncc4)n3)C(=O)O2)cc1	-	-	IC50	-	<1 µM
COc1nc(Nc2ccc3[nH]ncc3c2)nc(N2CCC(C(N)=O)CC2)n1	-	-	inhibition	1 µg/mL	48%
COc1ccc(CCC2(C3CCCC3)CC(=O)CC(=O)O2)cc1C	-	-	IC50	-	1–10 µM
CNC(=O)c1c(-c2ccc(F)cc2)oc2cc(N(C)S(C)(=O)=O)c(OCC(=O)Nc3nncs3)cc12	-	-	IC50	-	≤0.5 µM
O=C1OC(CCc2ccc(O)cc2)(C2CCCC2)CC(O)=C1Cl	-	-	IC50	-	10–50 µM
CNC(=O)c1c(-c2ccc(F)cc2)oc2cc(S(=O)(=O)N3CCC(O)C3)c(OC(C)C)cc12	-	-	IC50	-	≤0.5 µM
COc1nc(NCCc2c[nH]c3ccccc23)nc(Nc2ccc3cn[nH]c3c2)n1	-	-	inhibition	1 µg/mL	39%